Pooled drug test results. Numbers come from NIAID ChemDB, via PubChem.

Common to all: host cell toxicity; endpoint: CC50

Two numbers with a dash give a range or band. Neighbouring rows are from separate reports. An empty or dashed field is not shown. CCn is the concentration with n% toxicity to the cells.

SMILES | cells | read by | result
O=C(Cc1cnc2[nH]c3ccccc3n2c1=O)c1ccccc1 | HEP-2 | - | 8 µg/mL
COC(=O)C1=C(CN2CC(F)(F)[C@@H]3[C@H]2CON3C[C@@H](F)C(C)(C)C(=O)O)NC(c2nccs2)=N[C@H]1c1ccc(F)c(F)c1C | HepG2.2.15 | WST / absorbance | 45.7 µM
CC(C)OSSOC(C)C | EBM-2 | MTT | >20 µg/mL
Oc1[nH]c2ccccc2c1N=NC(=S)Nc1ccc(F)cc1 | hRD | - | >25 µM
C=CC(C)(C)c1c2c(c(O)c3ccc(=O)oc13)C(=O)CC(C)(C)O2 | 1A2 | tetrazolium | 37.2 µM
O=C(NCCc1cncc(-n2ccnc2)n1)NCc1ccc(Cl)c(Cl)c1 | PBMC | - | 50 µM
CC(C)(C)OC(=O)NCCN1CCC(NC(=O)C(=O)Nc2ccc(Cl)cc2)CC12CCCCC2 | PM1 | WST | 61 µM
COc1ccnc2[nH]cc(C(=O)C(=O)N3CCN(C(=O)c4ccccc4)C[C@H]3C)c12 | HT-29 | - | >225 µM
CNC(=O)c1ccc(-n2c(-n3nc(C)cc3C)nc3c(c2=O)C[C@@H](C)N(C(=O)c2ccc(Br)c(C(F)(F)F)c2)C3)cc1Cl | HepG2.117 | luminescence | >0.5 µM
CCCC[C@@H](CN[C@H](CN)CCCCNC)NCc1cccc2ccccc12 | J774 | fluorescence | 104.3 µM
Nc1nc(NC2CC2)c2ncn([C@H]3C[C@H](O)[C@@H](CO)S3)c2n1 | MOLT-4 | - | <100 µM
CCCC[C@@H](CN[C@H](CN)CCN)NCc1cccc2ccccc12 | J774 | fluorescence | 101.4 µM
Nc1nc(-c2ccc(NC(=O)CNCc3ccccc3)cc2)cs1 | BHK-21/C13 | - | >100 µM
CCOC(=O)c1c(C)nc(NCCCCNc2ccnc3cc(Cl)ccc23)nc1-c1ccc(F)cc1 | MDCK cells | MTS | 11.4 µM
CC(=O)OC[C@H]1O[C@@H]2Oc3[nH]c(=O)[nH]c(=O)c3S[C@@H]2[C@@H](OC(C)=O)[C@H]1OC(C)=O | PBM | - | >100 µM
Cc1cn([C@@H]2O[C@H](CO)[C@@H](O)[C@@H]2O)c(=O)[nH]c1=O | HELF | - | 150 µg/mL
Nc1nc(N)c2cc3c(nc2n1)CCc1ccccc1-3 | SK-5 | MTT | 16.2 µM
CC(=O)O[C@@H]1[C@@H](OC(C)=O)[C@H](C)O[C@@H]2Oc3[nH]c(=O)[nH]c(=O)c3S[C@@H]21 | PBM | - | 70 µM
CC(Nc1nnc(Nc2ccc(Cl)cc2)nn1)c1ccccc1 | Mammalian cells | - | 38 µM
O=C(NCCc1ccc2c(n1)NCCC2)Nc1ccc2c(c1)CCC2 | PBMC | - | 3.8 µM
CCCCCCOC(=O)Nc1ncnn2c([C@@H]3O[C@H](CO)[C@@H](O)[C@@]3(C)O)ccc12 | Caco2 | MTS | 9.3 µM
CN(C(=O)[C@H](Cc1ccccc1)NC(=O)CC1NC(=O)NC1=O)c1ccc(F)cc1 | TZM-gfp | XTT | >50 µM
COc1ccc2c(c1)[nH]c1cc(OC)c(C=O)cc12 | 1A2 | tetrazolium | 232 µM
COc1cccc(NC(=O)N=Nc2c(O)[nH]c3ccccc23)c1 | hRD | - | >25 µM
CC(=O)OC[C@H]1O[C@@H]2Oc3c(c(=O)n(C)c(=O)n3C)S[C@@H]2[C@@H](OC(C)=O)[C@H]1OC(C)=O | PBM | - | 39 µM
CCOC(=O)c1cnc(NCCCCNc2ccnc3cc(Cl)ccc23)nc1C | MDCK cells | MTS | 10.3 µM
CCOC(=O)C1=C(CN2CC(F)(F)[C@H]3[C@@H]2CCN3C[C@@](C)(F)C(=O)O)NC(c2nccs2)=N[C@H]1c1cccc(F)c1C | HepG2.2.15 | WST / absorbance | 25.3 µM
OC[C@H]1O[C@@H](n2c(Br)nc3cc(Cl)c(Cl)cc32)[C@H](O)[C@@H]1O | CEM-CD+4 | - | 35–72 µM
COc1ccc2[nH]c(O)c(N=NC(=S)Nc3ccccc3)c2c1 | hRD | - | >25 µM
Cc1ccc(NC(=O)C(=O)NC2CCNC3(CCCCC3)C2)cc1 | PM1 | WST | 115 µM
c1ccc(Nc2cc(Nc3ccccc3)ncn2)cc1 | Vero cell | MTT | <3 µM
CCOC(=O)c1cc(NC(=O)c2ccccc2)c(=O)n2c1[nH]c1ccccc12 | HEF | - | 40 µg/mL
CCN(CC)C(=O)c1ccc2nc3ccccc3c(NCCc3c[nH]c4ccccc34)c2c1 | BHK | - | 125 µM
CC(=O)O[C@@H]1[C@H](C)[C@@H](C)O[C@@]2([C@@H]1C)[C@@H](C)C=C(C)C(=O)[C@@H]2C | HL-60 cells | MTT | >100 µM
CCOC(=O)C1=C(CN2CC(F)(F)[C@@H]3[C@H]2CON3C[C@@H](F)C(C)(C)C(=O)O)NC(c2nccs2)=N[C@H]1c1ccc(F)c(F)c1F | HepG2.2.15 | WST / absorbance | >25 µM
O=C(NCCc1ccc2c(n1)NCCC2)Nc1cccc(F)n1 | PBMC | - | 50 µM
Cc1ccc(N(C)C(=O)[C@H](Cc2ccccc2)NC(=O)CC2NC(=O)NC2=O)cc1 | TZM-gfp | XTT | >50 µM
CO[C@H]1O[C@H](Cn2cc(Cl)c(=O)[nH]c2=O)[C@H](O)[C@H]1OCc1ccccc1F | MOLT 4/C8 | - | 134 µM
CCOC(=O)c1c(C)nc(NCCCCNc2ccnc3cc(Cl)ccc23)nc1-c1ccc(Cl)cc1 | MDCK cells | MTS | 2.2 µM
Cc1cc(C)n(-c2nc3c(c(=O)n2-c2cnc4c(ncn4C)n2)C[C@@H](C)N(C(=O)c2ccc(Br)c(C(F)(F)F)c2)C3)n1 | HepG2.117 | luminescence | >0.5 µM
COc1ccc(-c2nc3ccc(-c4ccc5nc(-c6ccc(OC)cc6)[nH]c5c4)cc3[nH]2)cc1 | WI38 human lung fibroblasts | sulforhodamine | 0.71 µg/mL
CCCCCCCCOC(=O)Nc1ncnn2c([C@@H]3O[C@H](CO)[C@@H](O)[C@@]3(C)O)ccc12 | Caco2 | MTS | 27 µM
Nc1nc(N)c2cc3c(ccc4ccccc43)nc2n1 | CCRF-CEM | MTT | 1.8 µM
CCn1c(O)c(N=NC(=S)Nc2ccccc2)c2ccccc21 | RD | - | >25 µM
COc1ccc2nc3n[nH]c(C)c3c(SCc3ccco3)c2c1 | FS-85 | - | >100 µg/mL
Nc1nc2c(ncn2COC(CO)CO)c(=O)[nH]1 | IM9 | - | 35–72 µM
Cc1ccc2[nH]c(O)c(N=NC(=S)Nc3ccccc3)c2c1 | hRD | - | >25 µM
c1ccc(CNc2nnc(Nc3ccccc3)nn2)cc1 | Mammalian cells | - | >115 µM
CCCNc1nc(N)nc2c1ncn2[C@H]1C[C@H](O)[C@@H](CO)S1 | MOLT-4 | - | ~100 µM
CCOC(=O)c1cc(CC(=O)c2ccccc2)c(=O)n2c1sc1ccccc12 | HEF | - | 40 µg/mL
COc1cc2c(cc1C(C)NC/C=C/c1ccccc1)C=CC(C)(C)O2 | L6 rat skeletal myoblasts | - | 4.41 µM
C[N+](C)(C)CCOP(=O)([O-])OP(=O)(O)OCC1CCC(n2ccc(N)nc2=O)O1 | ATH8 | - | >100 µM
Oc1[nH]c2ccccc2c1N=NC(=S)Nc1ccccc1 | hRD | - | >25 µM
Cc1cc(C)n(-c2nc3c(c(=O)n2-c2ccc4c(c2)ncn4CC(F)F)C[C@@H](C)N(C(=O)c2ccc(Br)c(C(F)(F)F)c2)C3)n1 | HepG2.117 | luminescence | >0.5 µM
CCN(CC)c1ccc(-c2cn3c(=O)c4ncn([C@H]5CO[C@@H](CO)O5)c4nc3[nH]2)cc1 | PBM | - | >100 µM
Cc1cc(C)n(-c2nc3c(c(=O)n2-c2cc(C)c4c(c2)ncn4C)C[C@@H](C)N(C(=O)c2ccc(Br)c(C(F)(F)F)c2)C3)n1 | HepG2.117 | luminescence | >0.5 µM
CCCCCCCOC(=O)Nc1ncnn2c([C@@H]3O[C@H](CO)[C@@H](O)[C@@]3(C)O)ccc12 | Caco2 | MTS | 31 µM
O=C(NCCc1ccc2c(n1)NCCC2)Nc1ccc(OCCN2CCOCC2)cc1 | PBMC | - | 50 µM
COc1ccc(-c2cn3c(=O)c4ncn([C@H]5CC(N=[N+]=[N-])[C@@H](CO)O5)c4nc3[nH]2)cc1 | PBM | - | 56.7 µM
Nc1nc2c(ncn2COCCO)c(=O)[nH]1 | HET | - | 1360 µM
CC(=O)O[C@H]1[C@@H](OC(C)=O)[C@@H](CO[Si](c2ccccc2)(c2ccccc2)C(C)(C)C)O[C@@H](O[C@H]2[C@H](OC(C)=O)[C@H]3Sc4c(n(C)c(=O)n(C)c4=O)O[C@H]3O[C@@H]2CO[Si](c2ccccc2)(c2ccccc2)C(C)(C)C)[C@@H]1OC(C)=O | PBM | - | 100 µM
Cc1ccc(NC(=O)N=Nc2c(O)[nH]c3ccccc23)cc1 | hRD | - | >25 µM
CN(C(=O)[C@H](Cc1ccccc1)NC(=O)CC1NC(=O)NC1=O)c1ccc(Cl)cc1 | TZM-gfp | XTT | >50 µM
O=C(Nc1ccc(Cl)cc1)C(=O)NC1CCNC2(CCCCC2)C1 | PM1 | WST | 213 µM
CCCN(CCC)C(=S)N=Nc1c(O)[nH]c2ccccc12 | hRD | - | >25 µM
COc1ccc(C2C3=C(CC(C)(C)CC3=O)Nc3ccccc3N2C(C)=O)cc1OCc1ccccc1 | Huh7-CMV-Luc | - | >32 µM
CN1CCN(C(=O)c2ccc3nc4ccccc4c(NCCc4c[nH]c5ccccc45)c3c2)CC1 | BHK | - | 159 µM
NCCN1CCC(NC(=O)C(=O)Nc2ccc(Cl)cc2)CC12CCCCC2 | PM1 | WST | 45 µM
CCOC(=O)c1cc(C(=O)O)c(=O)n2c1[nH]c1ccccc12 | HEF | - | 25 µg/mL
Cc1cc(C)n(-c2nc3c(c(=O)n2-c2ccc(-c4cnn(C)c4)cc2)C[C@@H](C)N(C(=O)c2ccc(Br)c(C(F)(F)F)c2)C3)n1 | HepG2.117 | luminescence | >0.5 µM
CO[C@H]1O[C@H](Cn2cc(Br)c(=O)[nH]c2=O)[C@H](O)[C@H]1OCc1ccccc1F | MOLT 4/C8 | - | 102 µM
Cc1cc(C)n(-c2nc3c(c(=O)n2-c2ccc(OC[C@H](C)O)nc2)C[C@@H](C)N(C(=O)c2ccc(Br)c(C(F)(F)F)c2)C3)n1 | HepG2.117 | luminescence | >0.5 µM
CN(C(=O)[C@H](Cc1ccccc1)NC(=O)CNC(=O)c1ccccc1)c1cccc(Cl)c1 | TZM-gfp | XTT | >50 µM
COc1ccc2c(O[C@@H]3C[C@H]4C(=O)N[C@]5(C(=O)NS(=O)(=O)C6CC6)C[C@H]5/C=C\CCCCN(C)C(=O)[C@@H]4C3)cc(-c3nc(C(C)C)cs3)nc2c1C | Huh7-SG1a H77 | - | >42 µM
NC(N)=NCC(=O)NCCN1CCC(NC(=O)C(=O)Nc2ccc(Cl)cc2)CC12CCCCC2 | PM1 | WST | 33 µM
O=C(NCCc1ccccc1)NCCc1ccc2c(n1)NCCC2 | PBMC | - | 50 µM
CCOC(=O)C1=C(CN2CC(F)(F)[C@@H]3[C@H]2CON3C[C@@H](O)C(CC)(CC)C(=O)O)NC(c2nccs2)=N[C@H]1c1cccc(F)c1C | HepG2.2.15 | WST / absorbance | 15.8 µM

Again, the opening 7 rows:

| SMILES | cells | read by | result |
|---|---|---|---|
| O=C(Cc1cnc2[nH]c3ccccc3n2c1=O)c1ccccc1 | HEP-2 | - | 8 µg/mL |
| COC(=O)C1=C(CN2CC(F)(F)[C@@H]3[C@H]2CON3C[C@@H](F)C(C)(C)C(=O)O)NC(c2nccs2)=N[C@H]1c1ccc(F)c(F)c1C | HepG2.2.15 | WST / absorbance | 45.7 µM |
| CC(C)OSSOC(C)C | EBM-2 | MTT | >20 µg/mL |
| Oc1[nH]c2ccccc2c1N=NC(=S)Nc1ccc(F)cc1 | hRD | - | >25 µM |
| C=CC(C)(C)c1c2c(c(O)c3ccc(=O)oc13)C(=O)CC(C)(C)O2 | 1A2 | tetrazolium | 37.2 µM |
| O=C(NCCc1cncc(-n2ccnc2)n1)NCc1ccc(Cl)c(Cl)c1 | PBMC | - | 50 µM |
| CC(C)(C)OC(=O)NCCN1CCC(NC(=O)C(=O)Nc2ccc(Cl)cc2)CC12CCCCC2 | PM1 | WST | 61 µM |